The values that follow come from paper PMC11352099 (RSC Medicinal Chemistry, 2024).

Structures are written as SMILES.

In the assay the target is SARS-CoV-2 nsp14 MTase (Severe acute respiratory syndrome coronavirus 2, UniProt P0DTD1). In kind it is biochemical. The settings on record: enzymatic assay; after introduction of 5-ethynylpyrimidine C-7 substituent.

For `Cc1cc(=O)oc2cc(NC(=O)[C@H]3O[C@@H](n4cc(C#Cc5cncnc5)c5c(N)ncnc54)[C@H](O)[C@@H]3O)ccc12` [18l], the “fold enhancement in activity” value was found to be 10 fold.

As for `Cc1cc(=O)[nH]c2cc(NC(=O)[C@H]3O[C@@H](n4cc(C#Cc5cncnc5)c5c(N)ncnc54)[C@H](O)[C@@H]3O)ccc12` [18n], the “fold enhancement in activity” value was found to be 10 fold.
